The values below come from PubChem BioAssay AID720717 (ICCB-Longwood Screening Facility, Harvard Medical School, 2013).

SMILES strings stand for the structures. This is a selection; strong and weak results do not stand in their true shares. Activity calls are given as the source filed them.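 How the source made its calls: active means both repeat wells score below -2 in polarization z-score versus plate sample wells, excluding overly bright wells; inactive means the rest.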

This test deals with LANA (ORF73) N-terminal peptide binding to nucleosomes, Human herpesvirus 8. Kind of test: LANA N-terminal peptide–nucleosome interaction blockers – biochemical, fluorescence polarization, FITC-LANA1-23, chicken nucleosomes, primary screen (AID 720717). Conditions: FITC-LANA1-23 / chicken nucleosome fluorescence polarization; active compounds read low. The essentials:
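Test system: purified chicken nucleosomes with FITC-labelled LANA N-terminal peptide (1-23); Input: 240 nM purified chicken nucleosomes (480 nM peptide binding sites), final; Medium: TEN-BT buffer, pH 7.5; Timing: 10–45 min, room temperature; Technique: fluorescence polarization, 480 nm excitation, 535 nm parallel and perpendicular emission; Replication: duplicates.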
(Fluorescence polarisation rises when a labelled molecule tumbles more slowly, as on binding a larger partner.)
Take `CCCN1CCC(Nc2cc(OC)cc(OC)c2)CC1`: the z-score was inactive: -1.01.

For the molecule `CN1CCC(Nc2ccc(F)cc2)CC1`, the z-score is inactive: -0.299.

For `O=C1CCN(CCc2ccccc2)CC1`, the z-score was inactive: -0.0245. Then `CC(C)(C)OC(=O)N1CCC(Nc2ccccc2)CC1`, with inactive: -0.254. In the case of `CCN1CCC(Nc2ccc(F)cc2)CC1`, the z-score was inactive: 0.943.

As to `CCOC(=O)N1CCC(Nc2ccc(F)cc2)CC1`, the z-score was inactive: 0.487. Take `O=C1CCN(Cc2ccccc2)CC1`: the z-score is inactive: 0.196.

For the molecule `CCOC(=O)N1CCC(Nc2cccc(C)c2)CC1`, the z-score was inactive: -1.77. Consider `CCCN1CCC(Nc2ccc(OC)c(OC)c2)CC1`, for which the z-score is inactive: -1.53. Next, `N#CC1(Nc2ccccc2)CCN(Cc2ccccc2)CC1`: inactive: -1.29; `c1ccc(CN2CCC(Nc3ccc4c(c3)OCO4)CC2)cc1`: inactive: 1.45; `NC(=O)C1(Nc2ccc(F)cc2)CCNCC1`: inactive: 0.213.
